Values of other authors, collected in article PMC11232401, “Characterization of antimalarial activity of artemisinin-based hybrid drugs” (Antimicrobial Agents and Chemotherapy, 2024).

Test system: J774 cell line
Set-up: method as in PMID 31290221, PMID 34832911, PMID 38559731
Conditions: CC50/IC50, CC50 in J774 cell line; cited from earlier work

C[C@@H]1CC[C@H]2[C@@H](C)C(=O)O[C@@H]3O[C@@]4(C)CC[C@@H]1[C@]32OO4 [ART, artemisinin]
Selectivity index: 7463
